Drawing on PMC6049025 (The Journal of Infectious Diseases, 2018), this text covers Kd for two molecules.

The target in the assay is T1, recombinant DC-SIGN extracellular domain (human, UniProt Q9NNX6 59-404).
T1 sequence: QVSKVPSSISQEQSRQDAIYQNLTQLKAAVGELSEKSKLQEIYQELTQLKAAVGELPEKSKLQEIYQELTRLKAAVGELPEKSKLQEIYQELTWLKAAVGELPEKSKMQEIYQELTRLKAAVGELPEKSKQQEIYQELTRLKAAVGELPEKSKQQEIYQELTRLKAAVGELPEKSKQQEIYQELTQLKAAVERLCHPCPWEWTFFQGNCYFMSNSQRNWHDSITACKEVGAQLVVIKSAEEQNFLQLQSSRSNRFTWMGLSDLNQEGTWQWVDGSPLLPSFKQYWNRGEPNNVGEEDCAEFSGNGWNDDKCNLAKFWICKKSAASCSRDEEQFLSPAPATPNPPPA
Put plainly: SPR.

B1: mannosidase-treated recombinant HCMV gB (natural protein)
chain: not shown
modifications: terminal mannose residues removed with α(1-2,3,6)-mannosidase
As to B1, the dissociation constant (Kd) came to 0.149 nM.

B2: PNGase F-treated recombinant HCMV gB (natural protein)
chain: not shown
modifications: N-glycans removed with peptide-N-glycosidase F (the paper calls the digestion incomplete in regular conditions)
On to B2, for which the dissociation constant (Kd) was 0.23 nM.

Broadly, the Kd is a measure of binding affinity in units of concentration.
